The text below walks through data of patent US10556856B2, “Antibacterial agents” (Rutgers, The State University of New Jersey, priority 2014, dated 2020).

Entries after “also recorded” stand apart in the source; their conditions may differ.

Data set [1] in a line: Isothermal titration calorimetry. The class given is binding. The settings on record: anionic DOPC:DOPG LUVs titrated into 25 μM amphiphile. (In general: Isothermal titration calorimetry measures the heat released or taken up as one component is titrated into another.)
Data set [2] is described as follows: Langmuir monolayer study. The class given is physicochemical. The following applies: for maximum insertion pressure (MIP): DOPG monolayers, x-intercept extrapolated; for maximum surface pressure increase: pure DOPG.
Data set [3] can be described thus: Isothermal titration calorimetry. The following applies: neutral DOPC LUVs titrated into 25 μM amphiphile. Format: binding.
A short description of data set [4]: Langmuir monolayer study. The class given is physicochemical. The settings on record: neutral DOPC monolayers.
Data set [5] in a line: Langmuir monolayer study. Format: physicochemical. The settings on record: for maximum surface pressure increase: DOPC:DOPG; for maximum insertion pressure (MIP): DOPC:DOPG monolayers, x-intercept extrapolated.

On to `CCCCCCCCC(=O)OC(C(=O)NCCN)C(OC(=O)CCCCCCCC)C(=O)NCCN.Cl.Cl` (centres unmarked) [Amphiphile G7], for which the “enthalpy change of binding” value in data set [1] is recorded as “negative”. In addition, in the data set “Langmuir monolayer study [2]”, the “maximum insertion pressure (MIP)” value is listed as 46 mN/m and the “maximum surface pressure increase” value is recorded as 24 mN/m. Also, the “interactions with LUVs (heat signals)” value in data set [3] is recorded as “no interactions; also recorded: negligible”. Also, the “incorporation into lipid monolayer” value in “Langmuir monolayer study [4]” was “no significant incorporation”. In addition, in “Langmuir monolayer study [5]”, the “maximum surface pressure increase” value turned out to be 12 mN/m and the “maximum insertion pressure (MIP)” value is 52 mN/m.

Consider `CCCNC(=O)[C@H](OC(=O)CCCCCCCCCCCN)[C@@H](OC(=O)CCCCCCCCCCCN)C(=O)NCCC.Cl.Cl` [Amphiphile B11], for which the “enthalpy change of binding” value in data set [1] is “positive”. In addition, the “maximum insertion pressure (MIP)” value in “Langmuir monolayer study [2]” was 40 mN/m; in the data set “Langmuir monolayer study [5]”, 42 mN/m. Also, the “maximum surface pressure increase” value in “Langmuir monolayer study [2]” is given as 20 mN/m; in the data set “Langmuir monolayer study [5]”, 15 mN/m. Moreover, the “interactions with LUVs (heat signals)” value in data set [3] is on record as “no interactions; also recorded: negligible”. Also, the “incorporation into lipid monolayer” value in the data set “Langmuir monolayer study [4]” is listed as “no significant incorporation”.
